Legend:
[1] = target: T1, SARS-COV-2 Omicron BA.1 S protein (ACRObiosystems) (SARS-CoV-2 Omicron BA.1); test: ELISA, coated antigen, dilution series, OD450 [2/3]
[2] = target: T1, SARS-COV-2 Omicron BA.1 S protein …; test: ELISA, coated antigen, dilution series, OD450 [1/3]

Binder | EC50 (read off the curve) [1] [ng/mL] | EC50 (read off the curve) [2] [ng/mL]
VHH R3_DC2 (VHH) VHH: QVQLQESGGGLVQTGDSLRLSCAVSGRPFSTYTMGWFRQAPGKEREFVASMRWSGGTKYYSDSVKGRFSISRDNDQNTVNLQMNSLKPEDTAVYYCAAAYVSKANYGSLWYRNSGLYDYWGQGTQVTVSS | ~6 | 
VHH R4_DC20 (VHH) VHH: QVQLQESGGGLVQTGDSLRLSCAVSGRPFSTYTMGWFRQAPGKEREFVASMRWSGGTMNYADSVKGRFTISRDNDQNTVNLQMNSLKPEDTAVYYCAAAYVSKANYGSLWYRNSGLYDYWGQGTQVTVSS |  | ~5
VHH R4_DC16 (VHH) VHH: QVQLQESGGGLVQAGDSLRLSCAVSGRPFSTYTMGWFRQAPGKEREFVAAMRWSGGTIYYADSVKGRFTISRDNAQNTVNLQMNSLKPEDTAVYYCAAAYVSKANYGSSWYRNSGLYDYWGQGTQVTVSS | ~10 | 
